This passage reports SI results from paper PMC12715984, “Co‐cultivation and Medium Optimization: A Strategy for Discovering Fungal‐derived Protease Inhibitors” (Chemistry & Biodiversity, 2025).

In the data set the test system is T. cruzi Tulahuen lacZ strain. The data set can be described thus: Anti-T. cruzi activity, intracellular amastigotes in HFF-1 cells, beta-galactosidase/CPRG readout. The note with it: selectivity index, HFF-1 cytotoxicity vs T. cruzi activity.

“And” between values parts separate entries of the source, which are not always exact repeats. Equal entries are not always repeated. Where only a bound is given, the exact number is not on record here.

On to `CCCCc1ccc(C(=O)[O][Mg][O]C(=O)c2ccc(CCCC)cn2)nc1` [Compound 2, magnesium complex of fusaric acid], for which the SI is 4.80–5.25 and > 5.25.

As for `CSC12CC3=CC=CC(OC(C)=O)C3N1C(=O)C1(SC)CC3=CC=CC(OC(C)=O)C3N1C2=O` (centres unmarked) [Compound 4, haematocin], the SI is 4.80–5.25 and > 4.80. The result for `CCCCc1ccc(C(=O)O)nc1` [Compound 5, fusaric acid] reads > 3 and > 3.06.

Turning to `C[C@@H](O)CCc1ccc(C(=O)O)nc1` [Compound 7, (R)‐fusarinolic acid], the SI was more than 1.06. The result for `CC(C)=CCCC(C)(O)C1CCC(C)(O)C1C` (centres unmarked) [Compound 8, cyclonerodiol] reads > 3 and > 2.81.
